# Source: US20250353853A1, “FLAVIVIRUS INHIBITORS” (IRBM S.P.A., priority 2022, published 2025)
# Target: DEN2V NS2B-G4SG4-NS3 serine protease (Dengue virus type 2 (DENV-2), UniProt Q91H74)
# Assay: DEN2V Protease Inhibition Assay
row,Compound,IC50 [µM]
1,"NCc1ccccc1-c1ccc(C[n+]2cc([N-]C(=O)Nc3cccc(C(F)(F)F)c3)on2)nc1 [Example 121, (3-((5-(2-(aminomethyl)phenyl)pyridin-2-yl)methyl)-1,2,3-oxadiazol-3-ium-5-yl)((3-(trifluoromethyl)phenyl)carbamoyl)amide]",1 to 20
2,"Cc1ncnc(OCCN(C)C)c1-c1ccc(C[n+]2cc([N-]C(=O)Nc3cccc(C(F)(F)F)c3)on2)nc1 [Example 123, ((3-((5-(4-(2-(metheyliumyl(methyl)ammonio)ethoxy)-6-methylpyrimidin-5-yl)pyridin-2-yl)methyl)-1,2,3-oxadiazol-3-ium-5-yl)((3-(trifluoromethyl)phenyl)carbamoyl)amide) (2,2,2-trifluoroacetate)]",1 to 20
3,"O=C([N-]c1c[n+](Cc2ccc(-c3cnn4c3CNCC4)cn2)no1)Nc1cccc(C(F)(F)F)c1 [Example 124, (3-((5-(4,5,6,7-tetrahydropyrazolo[1,5-a]pyrazin-3-yl)pyridin-2-yl)methyl)-1,2,3-oxadiazol-3-ium-5-yl)((3-(trifluoromethyl)phenyl)carbamoyl)amide]",1 to 20
4,"O=C([N-]c1c[n+](Cc2ccc(-c3cncnc3)cn2)no1)Nc1cncc(C(F)(F)F)c1 [Example 125, (3-((5-(pyrimidin-5-yl)pyridin-2-yl)methyl)-1,2,3-oxadiazol-3-ium-5-yl)((5-(trifluoromethyl)pyridin-3-yl)carbamoyl)amide]",1 to 20
5,"Cc1noc(C)c1-c1ccc(C[n+]2cc([N-]C(=O)Nc3cncc(C(F)(F)F)c3)on2)nc1 [Example 126, (3-((5-(3,5-dimethylisoxazol-4-yl)pyridin-2-yl)methyl)-1,2,3-oxadiazol-3-ium-5-yl)((5-(trifluoromethyl)pyridin-3-yl)carbamoyl)amide]",1 to 20
6,"Cc1noc(C)c1-c1ccc(C[n+]2cc([N-]C(=O)Nc3cncc(C(F)(F)F)c3)on2)cc1 [Example 127, (3-(4-(3,5-dimethylisoxazol-4-yl)benzyl)-1,2,3-oxadiazol-3-ium-5-yl)((5-(trifluoromethyl)pyridin-3-yl)carbamoyl)amide]",1 to 20
7,"Cc1cnncc1-c1ccc(C[n+]2cc([N-]C(=O)Nc3cncc(C(F)(F)F)c3)on2)nc1 [Example 128, (3-((5-(5-methylpyridazin-4-yl)pyridin-2-yl)methyl)-1,2,3-oxadiazol-3-ium-5-yl)((5-(trifluoromethyl)pyridin-3-yl)carbamoyl)amide]",1 to 20
8,"Cc1cnncc1-c1ccc(C[n+]2cc([N-]C(=O)Nc3cccc(C(F)(F)F)c3)on2)nc1 [Example 129, (3-((5-(5-methylpyridazin-4-yl)pyridin-2-yl)methyl)-1,2,3-oxadiazol-3-ium-5-yl)((3-(trifluoromethyl)phenyl)carbamoyl)amide]",1 to 20
9,"Cc1ncnc(C)c1-c1ccc(C[n+]2cc([N-]C(=O)Nc3cccc(C(F)(F)F)c3)on2)nc1 [Example 130, (3-((5-(4,6-dimethylpyrimidin-5-yl)pyridin-2-yl)methyl)-1,2,3-oxadiazol-3-ium-5-yl)((3-(trifluoromethyl)phenyl)carbamoyl)amide]",1 to 20
10,"O=C([N-]c1c[n+](Cc2ccc(-c3cncnc3C(F)(F)F)cn2)no1)Nc1cccc(C(F)(F)F)c1 [Example 131, ((3-(trifluoromethyl)phenyl)carbamoyl)(3-((5-(4-(trifluoromethyl)pyrimidin-5-yl)pyridin-2-yl)methyl)-1,2,3-oxadiazol-3-ium-5-yl)amide]",1 to 20
11,"Cc1ncnc(C)c1-c1ccc(C[n+]2cc([N-]C(=O)Nc3cncc(C(F)(F)F)c3)on2)nc1 [Example 132, (3-((5-(4,6-dimethylpyrimidin-5-yl)pyridin-2-yl)methyl)-1,2,3-oxadiazol-3-ium-5-yl)((5-(trifluoromethyl)pyridin-3-yl)carbamoyl)amide]",1 to 20
12,"COc1ncc(-c2ccc(C[n+]3cc([N-]C(=O)Nc4cncc(C(F)(F)F)c4)on3)nc2)c(C)n1 [Example 133, (3-((5-(2-methoxy-4-methylpyrimidin-5-yl)pyridin-2-yl)methyl)-1,2,3-oxadiazol-3-ium-5-yl)((5-(trifluoromethyl)pyridin-3-yl)carbamoyl)amide]",1 to 20
13,"COc1ncc(-c2ccc(C[n+]3cc([N-]C(=O)Nc4cccc(C(F)(F)F)c4)on3)nc2)c(C)n1 [Example 134, (3-((5-(2-methoxy-4-methylpyrimidin-5-yl)pyridin-2-yl)methyl)-1,2,3-oxadiazol-3-ium-5-yl)((3-(trifluoromethyl)phenyl)carbamoyl)amide]",1 to 20
14,"COc1ncnc(C)c1-c1ccc(C[n+]2cc([N-]C(=O)Nc3cccc(C(F)(F)F)c3)on2)nc1 [Example 135, (3-((5-(4-methoxy-6-methylpyrimidin-5-yl)pyridin-2-yl)methyl)-1,2,3-oxadiazol-3-ium-5-yl)((3-(trifluoromethyl)phenyl)carbamoyl)amide]",1 to 20
15,"COc1ncnc(C)c1-c1ccc(C[n+]2cc([N-]C(=O)Nc3cncc(C(F)(F)F)c3)on2)nc1 [Example 136, (3-((5-(4-methoxy-6-methylpyrimidin-5-yl)pyridin-2-yl)methyl)-1,2,3-oxadiazol-3-ium-5-yl)((5-(trifluoromethyl)pyridin-3-yl)carbamoyl)amide]",1 to 20
16,"O=C([N-]c1c[n+](Cc2ccc(-c3cncnc3C(F)(F)F)cn2)no1)Nc1cncc(C(F)(F)F)c1 [Example 137, ((5-(trifluoromethyl)pyridin-3-yl)carbamoyl)(3-((5-(4-(trifluoromethyl)pyrimidin-5-yl)pyridin-2-yl)methyl)-1,2,3-oxadiazol-3-ium-5-yl)amide]",1 to 20
17,"Cc1ncnc(C)c1-c1ccc(C[n+]2cc([N-]C(=O)Nc3ccnc(C(F)(F)F)c3)on2)cc1 [Example 185, (3-(4-(4,6-dimethylpyrimidin-5-yl)benzyl)-1,2,3-oxadiazol-3-ium-5-yl)((2-(trifluoromethyl)pyridin-4-yl)carbamoyl)amide]",1 to 20
18,"Cc1noc(C)c1-c1ccc(C[n+]2cc([N-]C(=O)Nc3ccnc(C(F)(F)F)c3)on2)cc1 [Example 186, (3-(4-(3,5-dimethylisoxazol-4-yl)benzyl)-1,2,3-oxadiazol-3-ium-5-yl)((2-(trifluoromethyl)pyridin-4-yl)carbamoyl)amide]",1 to 20
